# Only a part is listed here, and it is no random draw. The source made the active and inactive calls. The call rests on the fitted dose curve; in most records, active means well fitted inhibition curve with a large enough effect; inconclusive means small, poorly fitted or top-dose-only effect; inactive means no such curve, though single readings can be large or run the other way.
# Target: Phosphoglycerate kinase, glycosomal (Trypanosoma brucei brucei) (UniProt P07378)
# Experiment: qHTS Assay to Find Inhibitors of Phosphoglycerate Kinase; further: nearly all actives have a fitted effect of over 60% in size
# Conditions: PGK/GAPDH coupled, Kinase-Glo luminescence, 60 min; activity change, negative = inhibition: at 57.5 µM (top of the series) unless noted
# From the text: Several species of the Trypanosomatidae family of parasitic protozoans cause a spectrum of diseases throughout the tropical and subtropical world. Sleeping sickness, caused by two subspecies of Trypanosoma brucei, is endemic to areas of sub-Saharan Africa, while Chagas disease, a manifestation of Trypanosoma cruzi infection, is prevalent throughout Central and South America. In addition, many species of Leishmania are responsible for a range of cutaneous and visceral diseases, causing ulcers, destructive lesions and kalaazar, a lethal infection of the viscera. Collectively, these organisms infect 30 million people worldwide (~500 million live in endemic areas), and account for ~130,000 deaths annually. Given their debilitating and prevalent nature, trypanosomatid parasites impose a heavy medical, economic and social burden on entire populations, primarily in the developing world. The problem is further exacerbated by the fact that existing treatments have progressed little in the past 50 years, and current drugs show high toxicity and poor efficacy. […] Blood-stream stages of T. brucei are entirely dependent on glycolysis as a source of ATP, and the tricarboxylic acid cycle and oxidative phosphorylation are both repressed. Glycolysis in axenically cultured T. cruzi, representing the intracellular pathogenic stage, is also essential for these parasites. […] Previous studies have shown that the glycolytic enzyme, phosphoglycerate kinase (PGK), is a viable target for drugs to kill these parasites. […] NIH Molecular Libraries Probe Production Network [MLPCN] NIH Chemical Genomics Center [NCGC] MLPCN Grant: R03 MH093212 PI Name: Malcolm Walkinshaw, University of Edinburgh
# 3ul of substrate/PGK buffer (columns 1,2,5-48) are dispensed into Greiner white solid bottom 1536-well assay plates; columns 3-4 receive only TEA buffer as 0x PGK controls. Compounds are then transferred via Kalypsys pin tool equipped with 1536-pin array (10nl slotted pins, V&P Scientific, San Diego, CA). Following addition of compound, 1ul of GAPDH (100nM final concentration, all columns) is added to initiate the reaction (this upstream coupling enzyme is necessary for in-well production of PGK substrate, 1,3-bisphosphoglycerate (1,3-BPG), which is unstable and not commercially available). The plates are then incubated at room temperature for 60 minutes. Kinase-Glo Plus reagent is added (2ul) and plates incubated for 10 minutes, before being transferred to a ViewLux high-throughput CCD imager (PerkinElmer) wherein single end-point measurements of luminescence are acquired using a clear filter. All reagents are diluted in an assay buffer consisting of 100mM TEA (pH 7.6), 5mM MgCl2 and 0.01% Tween-20.
row,SMILES,"activity change, negative = inhibition"
1,CC(C)(C)C(=O)NC(Sc1ccccc1)C(Cl)(Cl)Cl (stereo not given),inactive: 2.92%
2,CCc1cc(O)c([N+](=O)[O-])c(C)c1[N+](=O)[O-],inactive: 6.47%
3,O=P1(Nc2nc3ccc(Cl)cc3s2)COc2ccccc2O1 (stereo not given),inactive
4,CCOc1ccc(C2=NCC(CBr)S2)cc1 (stereo not given),inactive
5,CC(=O)Nc1ccc([As](=O)(O)O)c(O)c1,inactive
6,CC(=O)Nc1ccc(Oc2c([N+](=O)[O-])cc([N+](=O)[O-])cc2[N+](=O)[O-])cc1,inactive: -8.74%
7,Cc1ccccc1CN(C)C(=O)COC(=O)C(O)(c1ccccc1)c1ccccc1,inactive: -7.61%
8,C[C@H]1OP(=O)(Oc2ccccc2)C[C@@H]2O[C@@H]21 (stereo not given in full),inactive: -1.44%
9,C[C@@H]1C=CCP(=O)(Oc2ccccc2)O1 (stereo not given in full),inactive: -3.15%
10,CC(=O)c1ccc(N2CC2c2ccncc2)cc1 (stereo not given),inactive: -4.62%
11,N#C/C(=C\c1ccc(N(CCBr)CCBr)cc1)C(N)=O,inactive: -10.2%
12,COC(=O)C1(C)COP(=O)(NCc2ccccc2)OC1 (stereo not given),inactive: -4.32%
13,O=P1(N(CCCl)CCCl)OCCC2CCCCN21 (stereo not given),inactive: -0.587%
14,c1ccc(-c2nn[nH]n2)c(-c2nn[nH]n2)c1,inactive: 5.42%
15,Cc1ccc(NP(=O)(Oc2cccc(C)c2)Oc2cccc(C)c2)nc1,inactive: 1.45%
16,CCNC(=S)/N=C(\N)N[N+](=O)[O-],inactive: 0.77%
17,O=C(NC1CCS(=O)(=O)C1)NP(=S)(Oc1ccccc1)Oc1ccccc1 (stereo not given),inactive: -7.02%
18,CC(NC(=O)COC(=O)C(O)(c1ccccc1)c1ccccc1)c1ccccc1 (stereo not given),inactive: -1.21%
19,Cc1ccccc1OP(=O)(Nc1ccccn1)Oc1ccccc1C,inactive
20,O=c1c2cc([N+](=O)[O-])ccc2[nH]c2c([N+](=O)[O-])cc([N+](=O)[O-])cc12,inactive: -9.64%
21,CN(C)C(=O)Oc1noc2ccccc12,inactive: -0.834%
22,O=C(OC1CN2CCC1CC2)c1ccccc1 (stereo not given),inactive: 7.82%

row,SMILES,"activity change, negative = inhibition"
1,CCC(=O)N1C2C3N(C(=O)CC)C1C1N(C(=O)CC)C(C(N1C(=O)CC)N3C(=O)CC)N2C(=O)CC,inactive: 6.09%
2,COC(=O)c1cc2c(s1)N=C(c1ccccc1)N(C)P2(=O)N1CCOCC1 (stereo not given),inactive: 12.1%
3,CC(=O)NC(SC(=S)N(CC(C)C)CC(C)C)C(Cl)(Cl)Cl (stereo not given),inactive: 7.19%
4,Cc1ccc(OP(=O)(Nc2ccccn2)Oc2ccc(C)cc2)cc1,inactive: -2.26%
5,O=P(Nc1nc2ccccc2s1)(c1ccccc1)c1ccccc1,inactive: -3.22%
6,C[C@H]1OP(=O)(Oc2ccccc2)[C@H](O)[C@H](O)[C@H]1N=[N+]=[N-] (stereo not given in full),inactive: -12.7%
7,O=P(Nc1ccccn1)(c1ccc(Br)cc1)c1ccc(Br)cc1,inactive
8,CN(C)C1(CNC(=O)c2ccc(Cl)c(S(N)(=O)=O)c2)CCCCC1,inactive: 4.04%
9,COc1ccc(N)c([N+](=O)[O-])c1[N+](=O)[O-],inactive: -13.5%
10,O=C(OC1CN2CCC1CC2)c1cccc(Cl)c1 (stereo not given),inactive: 11.1%
11,C(Cc1nn[nH]n1)Cc1nn[nH]n1,inactive: 3.74%
12,Nc1ccc([As](=O)(O)c2ccc([N+](=O)[O-])cc2)cc1,inactive: -7.81%
13,O=[As](O)(c1ccccc1)c1ccc(O)cc1,inactive: -11.8%
14,O=[N+]([O-])c1ccc(O)c(/C=N/Nc2ccc([N+](=O)[O-])cc2[N+](=O)[O-])c1,inactive: -1.14%
15,CC(=O)NC(SC(=S)N(C)C)C(Cl)(Cl)Cl (stereo not given),inactive: -4.33%
16,O=[N+]([O-])c1ncn(CCn2cnc([N+](=O)[O-])n2)n1,inactive
17,c1nnnn1CCn1cnnn1,inactive: -1.65%
18,CC(C)C(=O)NC(Sc1ccccc1)C(Cl)(Cl)Cl (stereo not given),inactive: -4.65%
19,O=P(Nc1nccs1)(c1ccccc1)c1ccccc1,inactive: 9.8%
20,Cc1ccc(NP(=O)(Oc2ccccc2)Oc2ccccc2)nc1,inactive: -0.727%
21,CCc1nc2c(n1)c1c(non1O)c1c2no[n+]1[O-],inactive
22,O=[N+]([O-])c1cc([N+](=O)[O-])c(CCNc2ccccc2)c([N+](=O)[O-])c1,inactive: 0.91%

row,SMILES,"activity change, negative = inhibition"
1,O=[N+]([O-])c1cccc2n[nH]nc12,inactive: -3.21%
2,CC(=O)N1C2C3N(C(C)=O)C1C1N(C(C)=O)C(C(N1C(C)=O)N3C(C)=O)N2C(C)=O,inactive
3,COc1ccc(C2=NCC(CBr)S2)cc1 (stereo not given),inactive: -6.47%
4,CC1CCN(C(=O)Oc2c(Cl)cc(Cl)c3cccnc23)CC1,inactive: 0.983%
5,c1cc(-c2nn[nH]n2)ccc1-c1nn[nH]n1,inactive: -1.06%
6,CC(C)c1nc(Nc2ccccc2)n(P(=O)(N(C)C)N(C)C)n1,inactive: -9.52%
7,CC(C)=N/N=C(\N)N[N+](=O)[O-],inactive
8,CN(C)C(=O)OCCc1n(C)cc[n+]1C,inactive: 4.25%
9,CCN(/C(=N/P(=O)(N1CCOCC1)N1CCOCC1)N1CCOCC1)c1ccc(OC)cc1,inactive: -1.39%
10,Nc1ccc([As](=O)(O)c2ccc(N)cc2)cc1,inactive: 21.5%
11,O=C(Nc1cc([As](=O)(O)O)ccc1O)c1ccccc1,inactive: -2.25%
12,O=P1(N(CCCl)CCCl)OCCCS1 (stereo not given),inactive: 2.46%
13,O=C(O)CNc1ccc([As](=O)(O)O)cc1,inactive
14,COC(=O)C1(C)COP(=O)(Nc2ccccc2)OC1 (stereo not given),inactive: -0.454%
15,O=[N+]([O-])c1cccc(NC2=NCC(CBr)S2)c1 (stereo not given),inactive: 0.777%
16,O=[N+]([O-])c1ncn(CCn2ncnc2[N+](=O)[O-])n1,inactive: -2.28%
17,CC(C)(C)C(=O)NC(Sc1ccncn1)C(Cl)(Cl)Cl (stereo not given),inactive: -3.21%
18,Cc1cc(SC(NC(=O)c2ccc(F)cc2)C(Cl)(Cl)Cl)ncn1 (stereo not given),inactive: -7.93%
19,CCOP(=O)(Nc1ccccc1)OCC,inactive: -9.64%
20,Cc1ccc(NP(=O)(Oc2ccccc2F)Oc2ccccc2F)nc1,inactive: 6.77%
21,CN(C(=O)Cc1ccc(Cl)c(Cl)c1)[C@H]1CCCC[C@@H]1N1CCCC1,inactive: -11.1%

# Source: PubChem BioAssay AID602233 (National Center for Advancing Translational Sciences (NCATS), 2012)
